Experimental data from patent US20170145472A1, “METHOD OF DETECTING HELICASE ACTIVITY” (University of Macau, priority 2015, published 2017).

Test: Direct quenching control on complex 9 or the complex 9+G-quadruplex ensemble
Details: 10 μM of suramin or TBBT

Brc1c(Br)c(Br)c2n[nH]nc2c1Br [TBBT, reference compound]
direct quenching effect on complex 9 or the complex 9+G-quadruplex ensemble: not having a direct quenching effect
